System: H9 cells
Test: Survival/viability of HIV-infected H9 cells (trypan blue exclusion), % control
[1] = Table VIII, conc. 5 (g/ml as printed), 5760 min
[2] = Table VIII, conc. 10 (g/ml as printed), 5760 min
[3] = Table VIII, conc. 20 (g/ml as printed), 5760 min

Row | Compound | Cell Survival (% Control) (Table IV, conc. 0.01 (g/ml as printed), added with HIV, 4 days) | Cell Survival (% Control) (Table IV, conc. 0.1 (g/ml as printed), added with HIV, 4 days) | Cell Survival (% Control) (Table IV, conc. 10 (g/ml as printed), added with HIV, 4 days) | Cell Survival (% Control) [1] | Cell Survival (% Control) [2] | Cell Survival (% Control) [3]
1 | C[C@@H]1[C@H](O)[C@@H](C)/C=C/C=C/CC/C=C/C=C/C=C/C=C/[C@H](O[C@@H]2O[C@H](C)[C@@H](O)[C@H](N)[C@@H]2O)C[C@@H]2O[C@](O)(C[C@@H](O)C[C@@H](O)[C@H](O)CC[C@@H](O)C[C@@H](O)CC(=O)O[C@H]1C)C[C@H](O)[C@H]2C(=O)O [Amphotericin A, reference compound] | 62 % Control | 80 % Control | 88 % Control |  |  | 
2 | CCC(C)C1OC(=O)/C=C/C=C\C=C\C=C\C=C/CC(O)C(C)C(O)CC(O)CC(O)CC(O)CC(O)CC(O)CC(O)/C=C/C1C (centres unmarked) [Mycoticin B] |  |  |  | 0 % Control | 10 % Control | 15 % Control
3 | CCC(C)C1OC(=O)/C=C/C=C/C=C/C=C/C=C/CC(O)C(C)C(O)CC(O)CC(O)CC(O)CC(O)CC(O)CC(O)/C=C/C1C (centres unmarked) [Faeriefungin B] |  |  |  | 0 % Control | 12 % Control | 
4 | CC(C)C1OC(=O)/C=C/C=C/C=C/C=C/C=C/CC(O)C(C)C(O)CC(O)CC(O)CC(O)CC(O)CC(O)CC(O)/C=C/C1C (centres unmarked) [Mycoticin A, reference compound] |  |  |  | 0 % Control | 4 % Control | 14 % Control
